Measured values from several laboratories, pooled; numbers as filed in NIAID ChemDB.

All rows: whole-cell or culture tests; organism: Vaccinia virus; cells: E6SM; measure: EC50

ECn is the concentration giving n% inhibition of infection, replication or growth.

| SMILES | result |
|---|---|
| Nc1nc2c(ncn2C[C@@H](CF)OCP(=O)(O)O)c(=O)[nH]1 | >600 µM |
| O=c1[nH]c(=O)n([C@H]2C[C@H](O)[C@@H](COP(=O)([O-])OP(=O)([O-])OC[C@@H]3OC(O)[C@H](O)[C@H](O)[C@H]3O)O2)cc1I | 0.4 µg/mL |
| CCc1nc(-n2c(-c3ccccc3)nc3ccc(Br)cc3c2=O)nc(N)c1-c1ccc(Cl)cc1 | 1.92 µg/mL |
| CC1(CO)CCC(Cn2nnc3c(N)nc(N)nc32)C1(C)C | 30 µg/mL |
| NC1CSCCN2CCc3c([nH]c4ccccc34)[C@H]12 | 1 µg/mL |
| C#C[C@H](O)C1=C[C@@H](n2cnc3c(N)ncnc32)[C@H](O)[C@@H]1O | 4 µg/mL |
| COc1cc(Cc2cnc(-n3c(C)nc4ccc(Br)cc4c3=O)nc2N)cc(OC)c1OC | >80 µg/mL |
| CC1(C)[C@@H](CO)CC[C@@]1(C)Cn1nnc2c(N)ncnc21 | >400 µg/mL |
| Nc1ncnc2c1ncn2C[C@H](CF)OCP(=O)(O)O | ≥1200 µM |
| Cc1cccn2c(C3OCCO3)cnc12 | >1000 µM |
| COC(=O)[C@H](C)NP(=O)(OC[C@H]1O[C@@H](n2cc(/C=C/Br)c(=O)[nH]c2=O)C[C@@H]1O)Oc1ccc(Cl)cc1 | 0.128 µM |
| Nc1ccnc(O[C@H]2CO[C@H](CO)[C@@H](O)C2)n1 | >20 µg/mL |
| CC=NC(=N)c1nc(-c2ccc(OC)cc2)n(COCCO)n1 | >200 µg/mL |
| Cc1ccn2c(C3OCCS3)cnc2c1 | >1000 µM |
| CC1(C)[C@@H](CCO)C[C@H]1n1cnc2c(N)ncnc21 | 70 µg/mL |
| CC(Sc1ncnc2c1cnn2COCC(O)CO)C(N)=O | >400 µg/mL |
| C[C@@H](Cn1cnc2c(N)nc(N)nc21)OCP(=O)(O)O | >1200 µM |
| CC=NC(=N)c1nc(-c2ccccc2)n(COCCO)n1 | >40 µg/mL |
| CC1(CO)CCC(Cn2nnc3c(Cl)nc(N)nc32)C1(C)C | >100 µg/mL |
| O=C(CC1CCCCC1)N(O)c1ccccc1 | >80 µg/mL |
| O=c1[nH]c(=O)n([C@H]2C[C@H](O)[C@@H](CO)O2)cc1-c1cc(-c2ccccc2)no1 | >40 µg/mL |
| CC=NC(=N)c1nc(-c2cccc(OC)c2)n(C/C=C/c2ccccc2)n1 | >10 µg/mL |
| Nc1ncc2ncn(C[C@@H](CO)OCP(=O)(O)O)c2n1 | ≥660 µM |
| N#Cc1cncc([C@@H]2O[C@H](CO)[C@H](O)[C@@H]2O)c1 | ≥100 µg/mL |
| CC1(CO)CCC(Cc2nc3ncnc(N)c3[nH]2)C1(C)C | 100 µg/mL |
| CC[C@@H](O)C1=C[C@@H](n2cnc3c(N)ncnc32)[C@H](O)[C@@H]1O | 7 µg/mL |
| Cc1ccn2c(C(SCCc3ccccc3)SCCc3ccccc3)cnc2c1 | >1000 µM |
| OC[C@H]1O[C@@H](c2cncc(Br)c2)[C@@H](O)[C@@H]1O | ≥100 µg/mL |
| Nc1ncnc2c1ncn2C[C@H](CO)OCP(=O)(O)O | 36 µM |
| C[C@@]1(O)[C@@H](CO)O[C@@H](n2cnc3c(N)ncnc32)[C@@H]1O | 4 µg/mL |
| CC=NC(=N)c1nc(-c2ccc(OC)cc2)n(C/C=C/c2ccccc2)n1 | >10 µg/mL |
| Cc1cn([C@H]2C/C(=N\O)[C@@H](CO)O2)c(=O)[nH]c1=O | >200 µg/mL |
| Cc1ccn2c(C3OCCO3)cnc2c1 | >1000 µM |
| Nc1ccn([C@H]2CO[C@H](CO)[C@@H](O)C2)c(=O)n1 | 20 µg/mL |
| CC(C)CS[C@@H]1C=C[C@H](n2cnc3c(N)ncnc32)C1 | >16 µg/mL |
| CSc1ncnc2c1cnn2Cc1cn(CCCCO)nn1 | >400 µg/mL |
| CCc1nc2c(N)ncnc2n1[C@@H]1O[C@H](CO)[C@@H](O)[C@H]1O | 70 µg/mL |
| Cc1cn([C@H]2CO[C@H](CO)[C@@H](O)C2)c(=O)[nH]c1=O | >20 µg/mL |
| CC(Sc1ncnc2c1cnn2COCCO)C(N)=O | >400 µg/mL |
| Nc1ncnc2c1ncn2[C@@H]1C=C(CO)[C@@H](O)[C@H]1O | 0.2 µg/mL |
| NC(=O)CSc1ncnc2c1cnn2CCCCO | >400 µg/mL |
| C=C(N=CC)c1nc(-c2cccc(OC)c2)n(C2O[C@H](CO)[C@@H](O)[C@H](O)[C@H]2O)n1 | 300 µg/mL |
| Nc1ncnc2c1ncn2[C@@H]1O[C@H](COP(=O)(O)O[C@@H]2[C@H](O)[C@@H](COP(=O)(O)O[C@@H]3[C@H](O)[C@@H](COP(=O)(O)OP(=O)(O)OC[C@@H]4OC(O)[C@H](O)[C@H](O)[C@H]4O)O[C@H]3n3cnc4c(N)ncnc43)O[C@H]2n2cnc3c(N)ncnc32)[C@@H](O)[C@H]1O | 70 µg/mL |
| C=C(N=CC)c1nc(-c2ccc(OC)cc2)n([C@@H]2O[C@H](CO)[C@@H](O)[C@H]2O)n1 | 150 µg/mL |
| CC1(C)[C@@H](CO)CC[C@@]1(C)Cn1cc(Br)c(=O)[nH]c1=O | >400 µg/mL |
| Nc1ncnc2c1ncn2[C@@H]1O[C@H](COP(=O)(O)O[C@@H]2[C@H](O)[C@@H](COP(=O)(O)OP(=O)(O)OC[C@@H]3OC(O)[C@H](O)[C@H](O)[C@H]3O)O[C@H]2n2cnc3c(N)ncnc32)[C@@H](O)[C@H]1O | 150 µg/mL |
| CC1(CO)CCC(Cn2nnc3c(Cl)ncnc32)C1(C)C | 70 µg/mL |
| COc1ncnc2c1cnn2Cc1cn(CCCCO)nn1 | >400 µg/mL |
| CC1(C)[C@@H](CO)CC[C@@]1(C)Cn1nnc2c(Cl)ncnc21 | >400 µg/mL |
| Nc1ncnc2c1ncn2[C@@H]1C=C(CO)[C@@H](O)[C@H]1O | 0.7 µg/mL |
| CC[C@H](O)C1=C[C@@H](n2cnc3c(N)ncnc32)[C@H](O)[C@@H]1O | >200 µg/mL |
| O=c1[nH]c(=O)n([C@H]2C[C@H](O)[C@@H](CO)O2)cc1I | 0.2 µg/mL |
| CC=NC(=N)c1nc(-c2ccccc2)n(Cc2ccccc2)n1 | >4 µg/mL |
| CCCCOC[C@H]1O[C@@H]2CC(C)(C)C[C@@H]2[C@H]1OCCCC | >48 µg/mL |
| Nc1nc(-n2c(-c3ccccc3)nc3ccc(Br)cc3c2=O)nnc1-c1cccc(Cl)c1Cl | >80 µg/mL |
| CC1(C)[C@@H](CCO)C[C@H]1n1cnc2c(N)nc(N)nc21 | 200 µg/mL |
| CC1(CO)CCC(Cn2cnc3c(=O)[nH]cnc32)C1(C)C | 300 µg/mL |
| OCCCCn1cc(Cn2ncc3c(NCc4ccccc4)ncnc32)nn1 | >400 µg/mL |
| CC=NC(=N)c1nc(-c2cccc(OC)c2)n(Cc2ccccc2)n1 | >10 µg/mL |
| O=C(CCC1CCCCC1)N(O)c1ccc(Cl)cc1 | >16 µg/mL |
| CC1(CO)CCC(Cn2cnc3c(=O)[nH]c(N)nc32)C1(C)C | >400 µg/mL |
| COC(=O)C(C)(C)NP(=O)(OC[C@H]1O[C@@H](n2cc(/C=C/Br)c(=O)[nH]c2=O)C[C@@H]1O)Oc1ccccc1 | 32 µM |
| CC1(C)[C@@H](CCO)C[C@H]1n1nnc2c(N)ncnc21 | 70 µg/mL |
| CC[Si]1(C(C)C)O[C@H]2[C@@H](O)[C@H](c3ccccc3)O[C@@H]2CO[Si](C(C)C)(C(C)C)O1 | >3.2 µg/mL |
| Cc1cn([C@@H]2O[C@H](CO)[C@](O)(C(F)(F)F)[C@H]2O)c(=O)[nH]c1=O | >400 µg/mL |
| N#Cc1cncc([C@H]2O[C@H](CO)[C@H](O)[C@@H]2O)c1 | ≥100 µg/mL |
| Nc1ncnc2c1ncn2[C@@H]1C=C(CO)[C@@H](O)[C@H]1O | 0.2 µg/mL |
| Nc1nc2c(ncn2C[C@H](CF)OCP(=O)(O)O)c(=O)[nH]1 | 218 µM |

Lines come from different laboratories, so protocols vary.